Anti-infective test results gathered from many reports (values: NIAID ChemDB through PubChem).

Common to all: tests in culture; species: Hepatitis C virus

Rows are shuffled and stem from different studies. Blank or dashed fields: not listed here. Two numbers with a dash give a range or band. ECn: concentration that inhibits the pathogen or its effect by n%.

smiles,measure,strain or isolate,method,cells,result
CCCC1C2=C(CC(C)(C)CC2=O)Nc2c(O)cccc2N1C(C)=O,EC50,1b,luciferase / reporter gene / replicon,-,2.98 µM
COc1cc(Cc2cnc(/N=C3\C(=O)N(CN(C)C)c4ccc(F)cc43)nc2N)cc(OC)c1OC,EC50,-,-,Huh7,<50 µg/mL
CCCC(NC(=O)[C@@H]1C2CCCC2CN1C(=O)[C@@H](NC(=O)[C@@H](NC(=O)Cc1nn[nH]n1)C(C)CC)C(C)(C)C)C(=O)C(=O)NC1CC1,EC50,-,-,-,>50 µM
COc1cccc(-c2nc3ccn(Cc4ccc(Br)cc4)cc-3n2)c1,EC50,-,replicon,Huh 5-2,0.13 µg/mL
COc1cc2c(=O)c(-c3noc(CC4CCCC4)n3)cn(Cc3ccc(Cl)cc3)c2cc1OC,EC50,1b,replicon,-,>10 µM
CCCCCCCC(=O)CCCCCC/C=C/[C@H](C(=O)N[C@@H](Cc1ccc(OCCC(C)C)cc1)C(=O)O)[C@@](O)(CC(=O)O)C(=O)O,EC50,-,replicon,Huh7,0.001 µM
CCCC(NC(=O)[C@@H]1C2CCCC2CN1C(=O)[C@@H](NC(=O)[C@@H](NC(=O)CCCCc1nn[nH]n1)C(C)C)C(C)C)C(=O)C(=O)N[C@@H](C)CC,EC50,-,-,-,>50 µM
CCCNc1ncnc2ccc(-c3ccc(F)cc3)cc12,EC50,-,-,Huh7,1–10 µM
Nc1ncnc2c1cnn2[C@@H]1C=C(CO)[C@@H](O)[C@H]1O,EC50,-,luciferase,Huh7,>100 µM
CCCCc1ccc(CNC(N)=S)cc1,EC50,-,replicon,Huh7,<1 µM
CCCCCCCC(=O)CCCCCC/C=C/[C@H](C(=O)N[C@@H](Cc1ccc(-c2cccc(Cl)c2)cc1)C(=O)O)[C@@](O)(CC(=O)O)C(=O)O,EC50,-,replicon,Huh7,0.009 µM
CC1(C)CC(=O)C2=C(C1)Nc1c(O)cccc1N(C(=O)NCC(=O)O)C2c1ccc(OCc2ccccc2)cc1Cl,EC50,1b,luciferase / reporter gene / replicon,-,39.65 µM
Fc1ccc(-c2ccc3ncnc(N4CCOCC4)c3c2)cc1,EC50,-,-,Huh7,1–10 µM
CCCCCCCC(=O)CCCCCC/C=C/[C@H](C(=O)N[C@@H](Cc1ccc(-c2cccc(OC)n2)cc1)C(=O)O)[C@@](O)(CC(=O)O)C(=O)O,EC50,-,replicon,Huh7,0.002 µM
CCCCCCCCOc1ccc(N(C(=O)CCC(=O)O)c2nc(-c3cccnc3)cs2)cc1C(F)(F)F,EC50,-,-,-,<1 µM
C=C1C(=O)O[C@@H]2[C@H]1CC[C@H](COC(=O)/C(C)=C/C)[C@]1(O)CCC(=O)[C@@]21C,EC50,-,replicon,Huh7,<2 µM
CCCCCCCCOc1ccc(N(C(=O)COC(C)=O)c2nc(-c3cccnc3)cs2)cc1,EC50,-,-,-,<1 µM
CCOc1cc(O[C@@H]2C[C@H]3C(=O)N[C@]4(C(=O)NS(=O)OC5CC5)C[C@H]4/C=C\CCCCN(C)C(=O)[C@@H]3C2)c2ccc(OC)c(C)c2n1,EC50,1b,replicon,-,0.0043 µM
Nc1nc(N2CCOCC2)c2cc(-c3ccc(F)cc3)ccc2n1,EC50,-,-,Huh7,0.3–1 µM
Cc1cc(F)ccc1N=C1SC(c2ccc(NC(=O)[C@@H](C)NC(=O)OCc3ccccc3)cc2)C(=O)N1Cc1ccco1,EC50,-,replicon,Huh7,1–5 µM
O=C(Nc1ccnc(-c2cc(-c3c(Cl)cccc3Cl)no2)c1)C(Cl)Cl,EC50,-,replicon,-,0.02988 µM
CC(C)(NC(N)=S)c1ccc(Oc2ccccc2)cc1,EC50,-,replicon,Huh7,<1 µM
CCc1cccc(N=C2SC(c3ccc(NC(=O)[C@H]4CCCN4C(=O)OCc4ccccc4)cc3)C(=O)N2Cc2ccco2)c1,EC50,-,replicon,Huh7,1–5 µM
COc1ccc(N(C(N)=O)c2nc(-c3ccc(F)cc3)cs2)cc1C(F)(F)F,EC50,-,-,-,<1 µM
NC(=S)Nc1cccc(OCc2cccc(C(F)(F)F)c2)c1,EC50,-,replicon,Huh7,<1 µM
Fc1ccc(-c2ccc3ncnc(NC4CC4)c3c2)cc1,EC50,-,-,Huh7,1–10 µM
CC(C)[C@H](NC(=O)N[C@H](C(=O)N1C[C@H]2C([C@H]1C(=O)NC(CC1CC1)C(=O)C(N)=O)C2(C)C)C(C)(C)C)C(=O)c1cccs1,EC90,1,replicon,-,0.1 µM
COC(=O)NC[C@H](C(=O)N1CCCC1c1ncc(-c2ccc(-c3ccc(-c4cnc(C5CCCN5C(=O)[C@@H](NC(=O)OC)C(C)C)[nH]4)cc3)cc2)[nH]1)C(C)C,EC50,HCV4a-20,replicon,-,0.00001 µM
O=C(NCc1ccc(Cl)c(Cl)c1)c1nc2ccccc2c(=O)n1O,EC50,1b,replicon,Ava5,33.8 µM
CCCCCCCC(=O)CCCCCC/C=C/[C@H](C(=O)N[C@@H](Cc1ccc(-c2cccc(C(F)(F)F)c2)cc1)C(=O)O)[C@@](O)(CC(=O)O)C(=O)O,EC50,-,replicon,Huh7,0.002 µM
Fc1cccc(Cn2ccc3nc(-c4ccccc4)nc-3c2)c1,EC50,-,replicon,Huh 5-2,1 µg/mL
NC(=S)Nc1cccc(OC2Cc3ccccc3C2)c1,EC50,-,replicon,Huh7,<1 µM
CC1(C)CC(=O)C2=C(C1)Nc1c(O)cccc1N(C(=O)CCC(=O)N1CCC(C(N)=O)CC1)C2c1ccc(OCc2ccccc2)cc1Cl,EC50,1b,luciferase / reporter gene / replicon,-,24.52 µM
Cc1ccc(Oc2ccc(C[C@H](NC(=O)[C@@H](/C=C/CCCCCCC(=O)CCC3CCCCC3)[C@@](O)(CC(=O)O)C(=O)O)C(=O)O)cc2)cc1,EC50,-,replicon,Huh7,0.002 µM
CN(CC(F)(F)F)c1nc(NCc2ccc(S(N)(=O)=O)cc2)nc2ccc(-c3ccc(F)nc3)nc12,EC50,1b,luciferase,-,0.01 µM
O=C(NCc1cccc(Cl)c1)c1nc2ccccc2c(=O)n1O,EC50,1b,replicon,Ava5,29.6 µM
CCOc1nc(N)nc2c1ncn2[C@@H]1O[C@@H]2COP(=O)(OC(C)C)O[C@H]2[C@@]1(C)F,EC50,1b,PCR,Lunet,0.13 µM
NC(=S)Nc1ccc(N2CCCC3CCCCC32)cc1,EC50,-,replicon,Huh7,<1 µM
O=C(NCc1ccc(Cl)cc1)c1nc2ccccc2c(=O)n1O,EC50,1b,replicon,Ava5,76.3 µM
CCN(CC)CN1C(=O)/C(=N\c2ncc(Cc3cc(OC)c(OC)c(OC)c3)c(N)n2)c2cc(F)ccc21,EC50,-,-,Huh7,<50 µg/mL
C[C@@H](NC(=O)OCc1ccccc1)C(=O)Nc1ccc(C2SC(=Nc3ccc(N4CCOCC4)cc3)N(Cc3ccncc3)C2=O)cc1,EC50,-,replicon,Huh7,<0.1 µM
CC1(C)CC(=O)C2=C(C1)Nc1c(O)cccc1NC2c1ccc(Oc2ccccc2Cl)cc1Cl,EC50,1b,luciferase / reporter gene / replicon,-,9.9 µM
NC(=S)NCc1ccccc1,EC50,-,replicon,Huh7,<1 µM
Nc1ncnc2c1c(I)nn2[C@@H]1C=C(CO)[C@@H](O)[C@H]1O,EC50,-,luciferase,Huh7,6.6 µM
C=C1C(=O)O[C@@H]2[C@H]1CC[C@H](COC(=O)CC(C)C)[C@]1(O)CCC(=O)[C@@]21C,EC50,-,replicon,Huh7,<2 µM
NC(=S)Nc1ccc(Oc2ccccc2)cc1,EC50,-,replicon,Huh7,<1 µM
CC(C)(c1ccc(F)cc1)c1nc(-c2cn(Cc3ccc(C(F)(F)F)cc3)c3cc(N4CCOCC4)c(F)cc3c2=O)no1,EC50,1b,replicon,-,<0.5 µM
COc1ccc2c(O[C@@H]3C[C@H]4C(=O)N[C@]5(C(=O)O)C[C@H]5/C=C\CCCCC[C@H](NC(=O)OC5CCCC5)C(=O)N4C3)cc(-c3csc(NC(C)C)n3)nc2c1,EC50,Mutant strain,replicon,Huh7,1–1.8 µM
CC1(C)CC(=O)C2=C(C1)Nc1c(O)cccc1N(C(=O)CCC(=O)NC1CCCC1O)C2c1ccc(OCc2ccccc2)cc1Cl,EC50,1b,luciferase / reporter gene / replicon,-,28.92 µM
CCn1cc(C(=O)O)c(=O)c2cc(F)c(N3CCN(CN4C(=O)/C(=N\c5ncc(Cc6cc(OC)c(OC)c(OC)c6)c(N)n5)c5cc(F)ccc54)C(C)C3)c(F)c21,EC50,-,-,Huh7,<50 µg/mL
CCNc1ncnc2ccc(-c3ccc(F)cc3)cc12,EC50,-,-,Huh7,0.3–1 µM
COc1ccc(CC(=O)N2CCC[C@@H]2C(=O)Nc2ccc(C3SC(=Nc4ccc(N5CCOCC5)cc4)N(Cc4ccccn4)C3=O)cc2)cc1,EC50,-,replicon,Huh7,0.1–1 µM
Nc1ncnc2c1ncn2[C@@H]1C[C@H](CO)[C@@H](O)[C@]1(O)CO,EC50,-,-,Huh7,18.2 µg/mL
Nc1nc(N)c2ncn([C@@H]3O[C@H](CO)[C@@H](O)[C@@H]3F)c2n1,EC50,-,replicon,Huh7,10 µM
Cc1cc(-c2nnc(N[C@@H]3CCC[C@H](O)C3)o2)nc2c(C(C)(C)C)cc(OCC(F)(F)F)cc12,EC50,WT 1b,luciferase,-,0.00032 µM
COc1cc(Cc2cnc(/N=C3\C(=O)N(CN4CCN(c5ccc(Cl)cc5)CC4)c4ccc(F)cc43)nc2N)cc(OC)c1OC,EC50,-,-,Huh7,<50 µg/mL
CC(C)(c1ccccc1)c1nc(-c2cn(C(C)(C)c3ccccc3)c3cc(N4CCOCC4)c(F)cc3c2=O)no1,EC50,1b,replicon,-,>10 µM
Nc1ccc(CNC(=O)c2nc3ccccc3c(=O)n2O)cc1,EC50,1b,replicon,Ava5,21.4 µM
COc1ccc(Cn2cc(-c3noc(C(C)(C)c4ccc(F)cc4)n3)c(=O)c3cc(F)c(N4CCOCC4)cc32)cc1,EC50,1b,replicon,-,<0.5 µM
O=C(N[C@@H](C(=O)N1CCC[C@H]1C(=O)Nc1nc(-c2ccccc2)cs1)c1ccccc1)C1CC1,EC50,genotype 2a infectious HCV,luciferase,JFH1,0.1756 µM
NC(=S)Nc1cccc(CNc2ccccc2)c1,EC50,-,replicon,Huh7,<1 µM
NC(=O)CCCC(c1ccccc1)c1nc(-c2cn(Cc3ccc(C(F)(F)F)cc3F)c3ccccc3c2=O)no1,EC50,1b,replicon,-,<0.5 µM
NC(=S)Nc1ccc(N2CCC3CCCCC3C2)cc1,EC50,-,replicon,Huh7,<1 µM
Nc1nc(Cl)c(-c2cc3ccccc3o2)c(N[C@@H]2C[C@H](CO)[C@@H](O)[C@H]2O)n1,EC50,1b,-,Con-1,0.3 µM

Again, the opening 6 rows:

smiles	measure	strain or isolate	method	cells	result
CCCC1C2=C(CC(C)(C)CC2=O)Nc2c(O)cccc2N1C(C)=O	EC50	1b	luciferase / reporter gene / replicon	-	2.98 µM
COc1cc(Cc2cnc(/N=C3\C(=O)N(CN(C)C)c4ccc(F)cc43)nc2N)cc(OC)c1OC	EC50	-	-	Huh7	<50 µg/mL
CCCC(NC(=O)[C@@H]1C2CCCC2CN1C(=O)[C@@H](NC(=O)[C@@H](NC(=O)Cc1nn[nH]n1)C(C)CC)C(C)(C)C)C(=O)C(=O)NC1CC1	EC50	-	-	-	>50 µM
COc1cccc(-c2nc3ccn(Cc4ccc(Br)cc4)cc-3n2)c1	EC50	-	replicon	Huh 5-2	0.13 µg/mL
COc1cc2c(=O)c(-c3noc(CC4CCCC4)n3)cn(Cc3ccc(Cl)cc3)c2cc1OC	EC50	1b	replicon	-	>10 µM
CCCCCCCC(=O)CCCCCC/C=C/[C@H](C(=O)N[C@@H](Cc1ccc(OCCC(C)C)cc1)C(=O)O)[C@@](O)(CC(=O)O)C(=O)O	EC50	-	replicon	Huh7	0.001 µM